## Fitness effects across NS2B and the NS3 protease domain of Zika virus

Source: Ni et al. 2025 (doi:10.1038/s41467-025-63602-z), supplementary data.

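Mutant virus pools were grown in human Huh-7.5 cells. Deep sequencing gave the change in frequency of each mutant relative to wild type, averaged over three replicate libraries (two for positions 207-308). The aim was to find sites where inhibitor-binding pockets cannot change.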

Chain scanned (Zika virus MR766; NS2B from position 2 to 131, then the start of NS3):
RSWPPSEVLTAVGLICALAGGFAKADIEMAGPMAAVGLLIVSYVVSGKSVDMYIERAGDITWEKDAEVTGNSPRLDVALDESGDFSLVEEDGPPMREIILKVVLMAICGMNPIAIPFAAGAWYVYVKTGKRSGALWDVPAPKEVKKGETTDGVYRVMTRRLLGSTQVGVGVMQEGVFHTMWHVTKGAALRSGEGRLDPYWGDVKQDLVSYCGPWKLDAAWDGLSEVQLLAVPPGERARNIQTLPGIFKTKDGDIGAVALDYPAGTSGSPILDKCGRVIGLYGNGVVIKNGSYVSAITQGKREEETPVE

Values are log2 effects on growth: 0 is wild type, lower means poorer growth.
A change reads original residue, position, new residue.
This list holds changes to alanine only.
Positions 1-103, 104-206 and 207-308 were made and measured as separate libraries.
Position 1 still belongs to NS2A. In the paper, -1 or higher counts as tolerated.
Values above 0 are not proof of better growth: six high scorers were tested one by one, five grew less well than wild type and one about as well.

With G267A the assay gave -6.60. S268A read -5.65. P269A gave -5.68. With I270A the assay gave -4.75. L271A gave -4.85.

D272A read -4.39. With K273A the assay gave -1.43. C274A gave -0.26. With G275A the assay gave -0.53. With R276A the assay gave -2.00.

V277A gave -5.91. For I278A the result was -4.90. For G279A the result was -5.74. L280A gave -6.10. For Y281A the result was -5.98.

G282A gave -5.42. N283A read -5.67. G284A read -6.01. For V285A the result was -6.04. V286A read -4.27.

For I287A the result was -0.16. For K288A the result was -0.24. N289A read -6.20. G290A read -6.47. S291A read -0.48.

Y292A read -4.90. V293A read -5.98. For S294A the result was -5.43. I296A gave -5.35. T297A read -4.04.

With Q298A the assay gave -5.25. With G299A the assay gave -4.79. K300A read -4.87. R301A read -3.68. For E302A the result was -0.73.

E303A read 0.02. With E304A the assay gave -0.74. For T305A the result was 0.14. For P306A the result was -0.14. V307A gave -0.93.

E308A read 0.59.

2 of these entries, quoted again:

{"mutation": "L271A", "log2 effect": -4.85}
{"mutation": "C274A", "log2 effect": -0.26}